Anti-infective test results gathered from many reports (values: NIAID ChemDB through PubChem).

All rows: cytotoxicity tests; read-out: CC50

Neighbouring rows are from separate reports. Blank or dashed fields: not listed here. Two numbers with a dash give a range or band. CCn is the concentration with n% toxicity to the cells.

{"structure": "OCCOCn1cnc2c(Cl)cc(Cl)cc21", "cell line": "KB", "result": ">100 µM"}
{"structure": "c1ccc(-n2nccc2CCCCCCOc2cccc3ccccc23)cc1", "read by": "crystal violet", "cell line": "WIS HELA", "result": "25 µg/mL"}
{"structure": "COc1ccccc1NC(=S)Nc1ccc(S(=O)(=O)Nc2cc(C)on2)cc1", "read by": "MTT", "cell line": "CEM174", "result": ">100 µM"}
{"structure": "Nc1ncnc2c1ncn2[C@H]1C[C@]12C[C@H]2CO", "cell line": "BSC-1", "result": ">100 µM"}
{"structure": "CSc1nsc(-c2ccc(OCc3ccccc3)cc2)c1C#N", "cell line": "HELA-OHIO", "result": ">50 µM"}
{"structure": "C=C(C)C(O)CC/C(C)=C/[C@H]1C(=O)C(C)=C[C@@H]1O", "cell line": "HOG.R5", "result": "80 µM"}
{"structure": "CSc1nsc(-c2ccc(OS(=O)(=O)c3ccc(C)cc3)cc2)c1C#N", "cell line": "L929", "result": ">25 µM"}
{"structure": "Cc1cn(C2C[C@H](F)[C@@H](COP(=O)(N[C@@H](C)C(=O)OC(C)C)Oc3ccccc3)O2)c(=O)[nH]c1=O", "read by": "cell count", "cell line": "CEM/TK-", "result": ">250 µM"}
{"structure": "CCCCCCCCCCCCCCCCOCCCOP(=O)(O)CO[C@@H](CO)Cn1cnc2c(N)ncnc21", "read by": "neutral red", "cell line": "Huh7.5.1", "result": ">100 µM"}
{"structure": "CC(=O)OC[C@H]1O[C@@H]2Oc3[nH]c(=O)[nH]c(=O)c3S[C@@H]2[C@@H](OC(C)=O)[C@H]1OC(C)=O", "cell line": "PBM", "result": ">100 µM"}
{"structure": "O=C1C=CC(=C(c2ccc(O)cc2)c2ccc(O)cc2)C=C1", "cell line": "HuT-78", "result": "2.3 µM"}
{"structure": "CCCCCCCCCCCCCCCCCCOCCOP(=O)(O)CO[C@H](CO)Cn1cnc2c(N)ncnc21", "read by": "neutral red", "cell line": "Huh7.5.1", "result": "35.6 µM"}
{"structure": "CCOC1N=C2C3=C(N=CN2N1c1ccccc1)SC(c1ccncc1)C1=C3/C(=C/c2ccncc2)CCC1", "read by": "MTT", "cell line": "MCF-7", "result": "13.9 µM"}
{"structure": "Cn1c2c(c(=O)n(C)c1=O)S[C@@H]1[C@H](O2)O[C@H](COc2ccccc2)[C@@H](OCc2ccccc2)[C@@H]1OCc1ccccc1", "cell line": "PBM", "result": ">100 µM"}
{"structure": "Nc1nc2c(Cl)c(Cl)ccc2n1COC(CO)CO", "cell line": "KB", "result": ">100 µM"}
{"structure": "Cc1cc(NS(=O)(=O)c2ccc(NC(=S)NCc3ccccc3)cc2)no1", "read by": "MTT", "cell line": "CEM174", "result": ">100 µM"}
{"structure": "O=S(=O)(c1cccc2cnccc12)N1CCNCC1", "cell line": "OM-10.1", "result": "11.5 µg/mL"}
{"structure": "CCOC(=O)CCCCCOc1cccc(CN(C(=O)c2ccc(-c3cc(C(F)(F)F)cc(C(F)(F)F)c3)cc2)C(C)C)c1", "cell line": "RAJI", "result": ">20 µM"}
{"structure": "COc1cccc(NC(=S)Nc2ccc(S(=O)(=O)Nc3cc(C)on3)cc2)c1", "read by": "MTT", "cell line": "CEM174", "result": ">100 µM"}
{"structure": "CCOC(=O)CCCCCOc1cccc(CN(C(=O)c2ccc(-c3cccc(Oc4ccccc4)c3)cc2)C(C)C)c1", "cell line": "RAJI", "result": "13.5–20 µM"}
{"structure": "Nc1ncnc2c1c(-c1ccsc1)cn2[C@@H]1O[C@H](CO)[C@@H](O)[C@H]1F", "read by": "XTT", "cell line": "Replicon cells", "result": ">44 µM"}
{"structure": "Nc1ncnc2c1ncn2[C@H]1C[C@]12C[C@@H]2CO", "cell line": "BSC-1", "result": ">100 µM"}
{"structure": "CS(=O)(=O)C1(c2ncc(C(=O)NCCC3(c4ncc(-c5ccc(Cl)cc5)s4)CCC3)o2)CC1", "read by": "absorbance", "cell line": "Primary human hepatocytes", "result": "89 µM"}
{"structure": "COc1cc([C@@H]2c3cc4c(cc3[C@@H](O[C@@H]3O[C@@H]5CO[C@@H](C)O[C@H]5[C@H](O)[C@H]3O)[C@H]3COC(=O)[C@H]23)OCO4)cc(OC)c1O", "read by": "resazurin", "cell line": "DLD-1", "result": "2.5 µg/mL"}
{"structure": "CC(C)=CCC/C(C)=C\\[C@H]1C(=O)C(C)=C[C@@H]1O", "cell line": "HOG.R5", "result": "24.4 µM"}
{"structure": "CCOC(=O)c1ccc(NC(=S)Nc2ccc(S(=O)(=O)Nc3cc(C)on3)cc2)cc1", "read by": "MTT", "cell line": "CEM174", "result": ">100 µM"}
{"structure": "Cc1nc2c(c(=N)n1Nc1ccccc1)C1=C(CCC/C1=C\\c1ccncc1)C(c1ccncc1)S2", "read by": "MTT", "cell line": "KB", "result": "11.5 µM"}
{"structure": "CCCOC(=O)c1ccc(NC(=S)Nc2ccc(S(=O)(=O)Nc3cc(C)on3)cc2)cc1", "read by": "MTT", "cell line": "CEM174", "result": ">100 µM"}
{"structure": "CO[C@H](c1ccc(O)cc1)C1NC(=O)[C@H](CCC(N)=O)N(C)C(=O)[C@H](CC(C)C)NC(=O)[C@@H](CCCN=C(N)N)CC(=O)C([C@@H](C)O)CC(=O)[C@@H](NC(=O)C(NC(=O)[C@H](O)[C@H](O)[C@H](CCCN=C(N)N)NC(=O)C(C)NC(=O)[C@H](C)[C@H](O)[C@H](C)CC(C)C)[C@@H](C)[C@@H](C)C(N)=O)[C@@H](C)OC(=O)[C@H](C)N(C)C1=O", "read by": "MTT", "cell line": "Lymphomonocytes", "result": "0.01 µg/mL"}
{"structure": "O=C(N/C(C(=O)N1CCCCC1)=C(/Cl)c1ccccc1)c1ccccc1", "cell line": "HepAD38", "result": ">81 µM"}
{"structure": "C[C@@H]1C[C@@H](O)[C@H]2C3=C(C[C@H](O)[C@@]2(O)C1)C(=O)c1c(O)cccc1C3=O", "read by": "resazurin", "cell line": "NCI-H187", "result": "4.5 µM"}
{"structure": "CS(=O)(=O)C1(c2cccc(C(=O)NC34CC(c5nc(-c6ccc(Cl)cc6)no5)(C3)C4)n2)CC1", "read by": "absorbance", "cell line": "Primary human hepatocytes", "result": "8.32 µM"}
{"structure": "Nc1ncnc2c1c(-c1cccs1)cn2[C@@H]1O[C@H](CO)[C@@H](O)C1(F)F", "read by": "XTT", "cell line": "Replicon cells", "result": "32.71 µM"}
{"structure": "CC(=O)O[C@@H]1[C@@H](OC(C)=O)[C@H](C)O[C@@H]2Oc3[nH]c(=O)[nH]c(=O)c3S[C@@H]21", "cell line": "PBM", "result": "70 µM"}
{"structure": "CC1=CC(=C(c2ccc(N)c(S(=O)(=O)O)c2)c2ccc(N)c(S(=O)(=O)O)c2)C=C(S(=O)(=O)O)C1=N", "cell line": "HuT-78", "result": ">625 µM"}
{"structure": "Cc1cc(OCCCCCCc2ccns2)c2ccccc2n1", "read by": "crystal violet", "cell line": "WIS HELA", "result": "5 µg/mL"}
{"structure": "Nc1ncnc2c1c(I)cn2[C@@H]1O[C@H](CO)[C@@H](O)[C@H]1F", "read by": "XTT", "cell line": "Replicon cells", "result": "5.98 µM"}
{"structure": "CCO/C(C)=N\\C1=C(C#N)C2=C(CCC/C2=C\\c2ccncc2)C(c2ccncc2)S1", "read by": "MTT", "cell line": "MGC-803", "result": "48.6 µM"}
{"structure": "COc1ccc2c(c1OC)c(=O)c1ccccc1n2C", "cell line": "OM-10.1", "result": "28 µg/mL"}
{"structure": "Nc1ncnc2c1c(-c1ccccc1)cn2[C@@H]1O[C@H](CO)[C@@H](O)C1(F)F", "read by": "XTT", "cell line": "Replicon cells", "result": ">44 µM"}
{"structure": "C=CC1=C(C)C2=NC1=CC1=NC(=CC3=C(C)C4=C(O)CC(=C5NC(=C2)[C@@H](C)[C@@H]5CCC(=O)O)C4=N3)C(CC)=C1C", "read by": "WST", "cell line": "Huh7.5", "result": "7.2 µg/mL"}
{"structure": "Cc1cc(NS(=O)(=O)c2ccc(NC(=S)Nc3ccccc3F)cc2)no1", "read by": "MTT", "cell line": "CEM174", "result": ">100 µM"}
{"structure": "NC(=O)c1c(Cl)c(-c2cccnc2)n2c1CCCC2", "cell line": "CBLC", "result": ">30 µM"}
{"structure": "Cc1cc(OCCCCCCn2ccnc2)c2ccccc2n1", "read by": "crystal violet", "cell line": "WIS HELA", "result": "50 µg/mL"}
{"structure": "CC(C)OSSOC(C)C", "read by": "MTT", "cell line": "EBM-2", "result": ">20 µg/mL"}
{"structure": "Nc1ncnc2c1c(-c1ccco1)cn2[C@@H]1O[C@H](CO)[C@@H](O)C1(F)F", "read by": "XTT", "cell line": "Replicon cells", "result": "25.47 µM"}
{"structure": "Nc1ncnc2c1ncn2[C@H]1C[C@@]12C[C@@H]2CO", "cell line": "BSC-1", "result": ">100 µM"}
{"structure": "Nc1ncnc2c1c(-c1cccs1)cn2[C@H]1O[C@H](CO)[C@@H](O)C1(F)F", "read by": "XTT", "cell line": "Replicon cells", "result": "18.91 µM"}
{"structure": "CSc1nsc(-c2ccc(O)cc2)c1C#N", "cell line": "HELA-OHIO", "result": "10 µM"}
{"structure": "O=C1Sc2nc3c(c(=S)n2C/C1=C/c1ccccc1)C1=C(CCC/C1=C\\c1ccncc1)C(c1ccncc1)S3", "read by": "MTT", "cell line": "MCF-7", "result": "25.6 µM"}
{"structure": "Nc1nc2c(ncn2COC(CO)CO)c(=O)[nH]1", "cell line": "HET", "result": "250 µM"}
{"structure": "Nc1nc2c(ncn2[C@H]2C[C@]23C[C@H]3CO)c(=O)[nH]1", "cell line": "BSC-1", "result": ">100 µM"}
{"structure": "CCOC(=O)CCCCCOc1cccc(CN(C(=O)c2ccc(-c3cccc(OC)c3)cc2)C(C)C)c1", "cell line": "HEK 293", "result": ">20 µM"}
{"structure": "Nc1ncnc2c1ncn2[C@H]1C[C@@]12C[C@H]2CO", "cell line": "BSC-1", "result": ">100 µM"}
{"structure": "Cc1cc(NS(=O)(=O)c2ccc(NC(=S)Nc3ccc4c(c3)C(=O)OC4)cc2)no1", "read by": "MTT", "cell line": "CEM174", "result": ">100 µM"}
{"structure": "C[C@@H]1CC[C@H]2C3=C(C[C@H](O)[C@@]2(O)C1)C(=O)c1c(O)cccc1C3=O", "read by": "resazurin", "cell line": "NCI-H187", "result": "7.7 µM"}
{"structure": "CCOC(=O)CNC1=C(C#N)C2=C(CCC/C2=C\\c2ccncc2)C(c2ccncc2)S1", "read by": "MTT", "cell line": "MGC-803", "result": ">50 µM"}
{"structure": "OCCOCn1c(Br)nc2c(Cl)cc(Cl)cc21", "cell line": "KB", "result": ">100 µM"}
{"structure": "CC(=O)OC[C@H]1O[C@@H]2Oc3c(c(=O)n(C)c(=O)n3C)S[C@@H]2[C@@H](OC(C)=O)[C@H]1OC(C)=O", "cell line": "PBM", "result": "39 µM"}
{"structure": "Cc1cc(NS(=O)(=O)c2ccc(NC(=S)Nc3ccccn3)cc2)no1", "read by": "MTT", "cell line": "CEM174", "result": ">100 µM"}
{"structure": "COc1cc2c(cc1OC)C(C)=NCC2", "cell line": "HepG2", "result": "<7.5 µM"}
{"structure": "Cc1csc(CCCCCCCOc2cc(C)nc3ccccc23)n1", "read by": "crystal violet", "cell line": "WIS HELA", "result": "25 µg/mL"}
{"structure": "Cc1cc(NS(=O)(=O)c2ccc(NC(=S)NCc3ccc(F)cc3)cc2)no1", "read by": "MTT", "cell line": "CEM174", "result": ">100 µM"}
{"structure": "N#CC1=C(N)SC(c2ccncc2)C2=C1/C(=C/c1ccncc1)CCC2", "read by": "MTT", "cell line": "KB", "result": ">50 µM"}
{"structure": "Nc1ncnc2c1c(-c1ccccc1)cn2[C@H]1O[C@H](CO)[C@@H](O)C1(F)F", "read by": "XTT", "cell line": "Replicon cells", "result": ">44 µM"}
{"structure": "CS(=O)(=O)N1CC(C(=O)NC2CC3(C2)CC(c2nc4cc(Cl)ccc4o2)C3)C1", "read by": "absorbance", "cell line": "Primary human hepatocytes", "result": ">100 µM"}
{"structure": "NC(=O)c1[nH]c2c(c1N)C1=C(CCC/C1=C\\c1ccncc1)C(c1ccncc1)S2", "read by": "MTT", "cell line": "MCF-7", "result": ">50 µM"}
{"structure": "COc1cccc(-c2ccc(C(=O)N(Cc3cccc(OCCCCCC(=O)OC(=O)O)c3)C(C)C)cc2)c1", "cell line": "BJ", "result": ">20 µM"}
{"structure": "CCCCCCCCCCCCCCCCOCCCOP(=O)(O)CO[C@H](CO)Cn1cnc2c(N)ncnc21", "read by": "neutral red", "cell line": "Huh7.5.1", "result": ">100 µM"}
{"structure": "COc1ccc2c(O[C@@H]3C[C@H]4C(=O)N[C@]5(C(=O)NS(=O)(=O)C6CC6)C[C@H]5/C=C\\CCCCN(C)C(=O)[C@@H]4C3)cc(-c3nc(C(C)C)cs3)nc2c1C", "cell line": "Huh7-SGcon1b", "result": ">42 µM"}
{"structure": "Clc1cnn(-c2ccccc2)c1CCCCCCOc1ccc2c(c1)[nH]c1ccccc12", "read by": "crystal violet", "cell line": "WIS HELA", "result": "25 µg/mL"}
{"structure": "C=CCCC(=O)NC[C@H](O)c1ccc2c(c1)OCO2", "cell line": "HEK 293", "result": "<7.5 µM"}
{"structure": "CS(=O)(=O)C1(c2ccn(C(=O)NCCC3(c4ncc(-c5ccc(Cl)cc5)s4)CCC3)n2)CC1", "read by": "absorbance", "cell line": "Primary human hepatocytes", "result": "10.83 µM"}
{"structure": "CCOC(=O)COc1ccc(CNC(C)C)cc1", "cell line": "HEK 293", "result": ">20 µM"}
{"structure": "O=c1sc2nc3c(c(=S)n2/c1=C/c1ccccc1)C1=C(CCC/C1=C\\c1ccncc1)C(c1ccncc1)S3", "read by": "MTT", "cell line": "MGC-803", "result": "40.6 µM"}
{"structure": "CNc1nc2c(Cl)c(Cl)ccc2n1COCCO", "cell line": "KB", "result": ">100 µM"}

Repeating the final 6 entries:

structure | read by | cell line | result
Clc1cnn(-c2ccccc2)c1CCCCCCOc1ccc2c(c1)[nH]c1ccccc12 | crystal violet | WIS HELA | 25 µg/mL
C=CCCC(=O)NC[C@H](O)c1ccc2c(c1)OCO2 | - | HEK 293 | <7.5 µM
CS(=O)(=O)C1(c2ccn(C(=O)NCCC3(c4ncc(-c5ccc(Cl)cc5)s4)CCC3)n2)CC1 | absorbance | Primary human hepatocytes | 10.83 µM
CCOC(=O)COc1ccc(CNC(C)C)cc1 | - | HEK 293 | >20 µM
O=c1sc2nc3c(c(=S)n2/c1=C/c1ccccc1)C1=C(CCC/C1=C\c1ccncc1)C(c1ccncc1)S3 | MTT | MGC-803 | 40.6 µM
CNc1nc2c(Cl)c(Cl)ccc2n1COCCO | - | KB | >100 µM